These results are taken from US10988505B2.

This assay concerns PR8 H1N1 influenza virus. Kind of assay: Influenza virus replication PR8 in Calu-3 cells (viral plaque assay). The assay is classed as cell-based. The conditions noted are these: Calu-3 human bronchial epithelial cells, 48 h.
What is called EC50 is the concentration needed to bring the measured effect to its halfway point. The low end stands for greater potency, the high end for weaker potency. Turning to `N=C(N)NCCCCC(=O)N[C@@H](CCC(N)=O)C(=O)N[C@@H](Cc1ccccc1)C(=O)N[C@@H](CCCNC(=N)N)C(=O)c1nc2ccccc2s1` [Example 1], the EC50 turned out to be 27.3 nM.

The compound `CC(=O)N[C@@H](CCC(N)=O)C(=O)N[C@@H](Cc1ccccc1)C(=O)N[C@@H](CCCNC(=N)N)C(=O)c1nc2ccccc2s1` [Example 3] displayed an EC50 of 2.28 nM.

For the compound `C[C@H](NC(=O)[C@H](CCC(N)=O)NC(=O)[C@@H](N)CCCNC(=N)N)C(=O)N[C@@H](CCCNC(=N)N)C(=O)c1nc2ccccc2s1` [Comparative #1, reference compound], the EC50 was determined as 5070 nM.
